Structures are written as SMILES. This is a selection; strong and weak results do not stand in their true shares. Active and inactive are the calls of the source. Cut-off read from the data, not from the text of the source: active = activity change below about -65%; inconclusive = mostly about -30% to -63%; inactive = weaker than that.
% is set by controls: 0 for no effect and ±100 for the full control effect.

For the experiment, the system named is CtBP / adenovirus E1A interaction (AlphaScreen). The experiment can be described thus: qHTS Assay for Inhibitors of the CtBP/E1A Interaction. To be noted: AlphaScreen GST-E1A/His-CtBP binding, 1536-well; stronger effect = lower value. From the text: Carboxyl-terminal binding protein (CtBP) is a co-repressor for many transcription factors. […] Our studies have shown that CtBP is overexpressed in multiple human cancers, including lung, breast, and head and neck cancers. In particular, it is over-expressed in 50% of primary lung cancer and 90% of metastatic lesions. CtBP suppresses epithelial-specific genes as well as genes critical for apoptosis, providing the underlying molecular mechanism for its role in tumorigenesis. […] Based on the above data, we hypothesize that 1) CtBP suppresses the pro-apoptotic and epithelial genes, therefore overexpressed CtBP in human cancer cells increases EMT and cancer survival; 2) decreasing CtBP's function represents a targeted therapy for lung cancer and potentially multiple cancer types. As a co-repressor, CtBP binds to E1A and other transcription factors through a conserved peptide motif to carry out its action. Inhibiting this interaction using small molecules can potentially serve as effective cancer therapeutics.
To this end, we have developed a homogenous AlphaScreen assay targeting the CtBP/E1A interaction. We performed a large scale HTS of the Molecular Libraries Small Molecule Repository (MLSMR) to identify inhibitors of the CtBP/E1A interaction as potential anti-cancer therapeutics. Compounds identified can also be used as chemical probes to better understand the biological functions of CtBP.
NIH Chemical Genomics Center [NCGC]
NIH Molecular Libraries Probe Centers Network [MLPCN]
Assay Submitter (PI): Rui Zhao, University of Colorado Denver
The first step of the 5uL AlphaScreen assay is to dispense assay buffer (50 mM Tris, pH 8.0, 300 mM NaCl, 0.05% BSA, 0.02% Tween 20, 1 mM TCEP) into a Greiner 1536 white solid bottom microtiter plate (789175-F). Five microliters is added to Column 1, 4 uL is added to Column 2 and 3 uL is added to Columns 3 through 48. A 5X protein solution (125 nM GST-E1A protein + 125 nM His-tagged CtBP protein) is mixed and 1 uL is dispensed to Columns 3-48. Using a 1536 pintool, 23 nL of compound is transferred to the assay plate and the plate is incubated with a lid at 37 deg C in the dark for two hours. A solution of 5X AlphaScreen beads is mixed (50 ug/mL Glutathione linked donor beads + Nickel chelated acceptor beads) and 1 uL is dispensed to Columns 2-48. The assay plate is incubated for one hour, with a lid, at 37 deg C in the dark. The plate is read using a Perkin Elmer Envision using an AlphaScreen protocol.
As for `CC1(CBr)Cn2c(nc3ccccc3c2=O)S1` (centres undefined), the activity change is inactive: 11%. The same measure for `Cc1nc2ccc3ccccc3c2s1.O=[N+]([O-])c1cc([N+](=O)[O-])c(O)c([N+](=O)[O-])c1`: inactive: 2.04%; for `CC(C)/C=N\N=C(\N)N[N+](=O)[O-]`: inactive: -9.3%. Turning to `CN(C(=O)Cc1ccc(Cl)c(Cl)c1)[C@@H]1CCCC[C@H]1N1CCCC1`, the activity change was inactive: -17.5%. The same measure for `COc1ccccc1CNC(=O)COC(=O)C(O)(c1ccccc1)c1ccccc1`: inactive: -1.61%; for `CN(Cc1cccnc1)C(=O)COc1ccc(Cl)c(Cl)c1.O=[N+]([O-])c1cc([N+](=O)[O-])c(O)c([N+](=O)[O-])c1`: inactive: 0.894%. Regarding `O=P1(N(CCCl)CCCl)NCCC(C(F)(F)F)O1` (centres undefined), the activity change is inactive: 0.3%.

For `Clc1n[nH]nc1-c1nn[nH][15n]1`, the activity change is inactive: -2.1%.

Regarding `CN(CCCl)Cc1cc(Cl)c(NC2=NCCN2)c(Cl)c1`, the activity change is inactive: -15%. The result for `CCOP(=O)(NC(=NC(C)c1ccccc1)NC(C)c1ccccc1)OCC` (centres undefined) reads inactive: 4.93%; that for `Nc1ccc(CCCCOc2ccccc2)cc1.O=[N+]([O-])c1cc([N+](=O)[O-])c(O)c([N+](=O)[O-])c1`, inactive: -17.2%.

Regarding `O=[N+]([O-])c1cc([N+](=O)[O-])c(-n2nnc3ccccc32)c([N+](=O)[O-])c1`, the activity change is inactive: -22%.

As for `O=C(O)C(O)c1ccc(N(CCCl)CCCl)cc1.c1ccncc1` (centres undefined), the activity change is inactive: -16.5%. The result for `O=P1(Nc2ccccn2)COc2ccccc2OC1` reads inactive: -7.67%; that for `CCC1=CC2Cc3nc4ccc(Cl)cc4c(N)c3C(C1)C2` (centres undefined), inactive: -5.01%. The same measure for `O=P1(Nc2ccc(Br)cn2)COc2ccccc2OC1`: inactive: -0.529%. The result for `Cc1ccc(OCC(=O)OC2CN3CCC2CC3)cc1` (centres undefined) reads inactive: 1.32%; that for `CP(=O)(Nc1ccc(SC(F)(F)F)cc1)Oc1ccccc1` (centres undefined), inactive: -0.349%. As for `CCCOc1ccc(NP(C)(=O)Oc2ccc(Cl)cc2)cc1` (centres undefined), the activity change is inactive: -2.4%. On to `O=P1(Nc2ncccn2)COc2ccccc2OC1`, for which the activity change is inactive: 0.411%.

`COc1ccccc1OP(C)(=O)Nc1c(C)cccc1C` (centres undefined): the activity change was inactive: 4.58%. The same measure for `CN1CCCCC1COC(=O)C1(O)c2ccccc2CCc2ccccc21` (centres undefined): inactive: 4.93%. The same measure for `CCCC1OP(=O)(Nc2ccccc2)OCC1CC` (centres undefined): inactive: 6.24%. As for `O=C(/C=C/c1ccccc1)OC1CN2CCC1CC2` (centres undefined), the activity change was inactive: -1.74%. The same measure for `CN(C)C1(CNC(=O)c2ccc(S(C)(=O)=O)cc2)CCCCC1`: inactive: -2.59%. The result for `COc1cc(C2NCCC3(OCCO3)C2(C)C)cc(OC)c1OC.O=[N+]([O-])c1cc([N+](=O)[O-])c(O)c([N+](=O)[O-])c1` (centres undefined) reads inactive: 12.7%; that for `CC1CCC(C(C)C)C(OP(=O)(Nc2ccccn2)c2ccccc2)C1` (centres undefined), inactive: -2.18%. The result for `Cc1nn(-c2ccccc2)c2c1P(=O)(N1CCOCC1)N(C)C(c1ccccc1)=N2` (centres undefined) reads inactive: 3.3%. As for `CN(C(=O)Cc1ccc(Cl)c(Cl)c1)[C@H]1CC[C@@]2(CCCO2)C[C@@H]1N1CCCC1`, the activity change was inactive: 1.87%. Take `CC1=NCCc2c1[nH]c1ccccc21.O=[N+]([O-])c1cc([N+](=O)[O-])c(O)c([N+](=O)[O-])c1`: the activity change was inactive: -21.9%. For the compound `CN(C)C(=O)c1cc([N+](=O)[O-])cc2c1-c1c(cc([N+](=O)[O-])cc1[N+](=O)[O-])C2=O`, the activity change is inactive: -2.21%. The same measure for `O=[N+]([O-])c1ccc2c(c1)nnn2O`: inactive: -2.3%; for `CN(C(=O)Cc1ccccc1)[C@@H]1CC[C@]2(CCCO2)C[C@H]1N1CCCC1`: inactive: 4.63%. For the compound `CCOP1(=S)c2c(C)nn(CCC#N)c2N=C(c2ccc(F)cc2)N1C` (centres undefined), the activity change was inactive: -8.02%. The same measure for `N#CCCN(C(=O)COC(=O)C(O)(c1ccccc1)c1ccccc1)c1ccc(F)cc1`: inactive: -4.31%. The same measure for `NC(=O)Nc1ccc([As](=O)(O)O)cc1`: inactive: 7.83%; for `Nc1ccccc1[As](=O)(O)c1ccccc1`: inactive: 13.2%; for `O=C(O)COc1ccc([As](=O)(O)O)cc1[N+](=O)[O-]`: inactive: 0%. The result for `CS(=O)(=O)c1cc([N+](=O)[O-])c2no[n+]([O-])c2c1` reads inactive: 0.245%. On to `O=P(Nc1nccs1)(c1ccccc1)c1nc2ccccc2s1` (centres undefined), for which the activity change is inactive: 2%. For the compound `CCOP1(=S)c2c(C)nn(CCC#N)c2N=C(c2ccccc2F)N1C` (centres undefined), the activity change is inactive: -9.38%.

On to `CCOP(=O)(Nc1cccc2ccccc12)OCC`, for which the activity change is inactive: 1.27%.

Consider `Cc1ccc(C)c(NP(C)(=O)Oc2ccccc2)c1` (centres undefined), for which the activity change was inactive: 0.182%. The same measure for `CP(=O)(Nc1cccc(Br)c1)Oc1ccccc1` (centres undefined): inactive: 9.98%; for `Cc1cc(C)cc(OP(C)(=O)Nc2ccccn2)c1` (centres undefined): inactive: 9.86%; for `CCOC(=O)c1ccc(NP(C)(=O)Oc2cc(C)cc(C)c2)cc1` (centres undefined): inactive: -12%. The same measure for `Cc1cc(C)cc(OP(C)(=O)Nc2ccc(C)cc2C)c1` (centres undefined): inactive: -13.5%; for `O=[As](O)(c1cccc(O)c1)c1cccc(O)c1`: inactive: 7.82%; for `Cc1cccc(OCC(=O)OC2CN3CCC2CC3)c1` (centres undefined): inactive: 5.54%.

In the case of `COc1ccccc1OP(C)(=O)Nc1cccc(Br)c1` (centres undefined), the activity change is inactive: 10.5%. The same measure for `CS(=O)(=O)c1ccc(Cl)c(NC(=O)COC(=O)C(O)(c2ccccc2)c2ccccc2)c1`: inactive: -1.65%; for `O=[As](O)(O)c1cccnc1`: inactive: 3.2%. The result for `O=C(OC1CN2CCC1CC2)c1ccc(Cl)cc1` (centres undefined) reads inactive: -8.32%; that for `COc1ccccc1-c1ccccn1.O=[N+]([O-])c1cc([N+](=O)[O-])c(O)c([N+](=O)[O-])c1`, inactive: 4.22%.

Take `COc1ccc(N/C(=N/P(=O)(N2CCOCC2)N2CCOCC2)N2CCOCC2)cc1`: the activity change is inactive: 10.1%.

Consider `O=[N+]([O-])c1cc(Oc2ccc([N+](=O)[O-])cc2C(F)(F)F)cc([N+](=O)[O-])c1`, for which the activity change was inactive: 6.71%.

With `COc1cc(I)ccc1[As](=O)(O)O`, the activity change was inactive: -1.82%. The same measure for `COc1ccc2nc(NP(=O)(c3ccccc3)c3ccccc3)sc2c1`: inactive: -6.12%. As for `O=P1(N(CCCl)CCCl)Nc2ccccc2N1`, the activity change is inactive: -8.3%.

(Values after PubChem BioAssay AID651724 (National Center for Advancing Translational Sciences (NCATS), 2012).)
